Anti-infective test results gathered from many reports (values: NIAID ChemDB through PubChem).

All rows: growth or infection tests

Blank or dashed fields: not listed here. ECn: concentration that inhibits the pathogen or its effect by n%. Percent inhibition refers to the dose given; in toxicity tests it is the harm to the cells. Conditions beyond the fields shown may differ between rows.

SMILES,strain or isolate,dose,cells,measure,conditions,read by,agent,result
Nc1nc2c(ncn2CCC(CO)CO)c(=O)[nH]1,GS,-,HSB-2,EC50,-,cytopathic effect,Human herpesvirus 6,>400 µM
O=C(NCCc1c[nH]c2ccccc12)C1=Cc2ccncc2CC1,1117R73-1-2,-,HFF,EC50,-,plaque count,Human cytomegalovirus,6.4 µM
Nc1nc2c(ncn2CCC(CO)CO)c(=O)[nH]1,729,50 µM,HUMAN CORD BLOOD CELL,inhibition,6 d,antigen,Human herpesvirus 6,12%
Nc1ncnc2c1ncn2CCOCP(=O)(O)O,-,-,SupT1,EC50,-,syncytia,Human herpesvirus 7,3.4 µM
Nc1nc2c(ncn2[C@@H]2C[C@H](CO)[C@H]2CO)c(=O)[nH]1,-,-,SupT1,EC50,-,syncytia,Human herpesvirus 7,3.4 µg/mL
Nc1ncnc2c1ncn2[C@@H]1C[C@H](c2ccccc2)[C@@H](O)[C@H]1O,DAVIS (100 PFU),-,HEL,EC50,-,cytopathic effect,Human cytomegalovirus,90 µg/mL
Nc1nc2c(ncn2COC(CO)CO)c(=O)[nH]1,-,-,CD4+ T lymphocytes,EC50,-,syncytia,Human herpesvirus 7,10.7 µg/mL
Nc1nccc2c1ncn2C[C@@H](CO)OCP(=O)(O)O,GS,-,HSB-2,EC50,-,cytopathic effect,Human herpesvirus 6,1.4 µM
Nc1ccn([C@@H]2C[C@H](CO)[C@@H](O)[C@H]2O)c(=O)n1,229E 229E,-,WI-38,EC50,-,cytopathic effect,Human coronavirus,7 µg/mL
C[C@H](Cn1cnc2c(N)ncnc21)OCP(=O)(O)O,-,-,CD4+ T lymphocytes,EC50,-,syncytia,Human herpesvirus 7,84 µg/mL
C[C@H](Cn1cnc2c(N)nc(N)nc21)OCP(=O)(O)O,GS,-,HSB-2,EC50,-,cytopathic effect,Human herpesvirus 6,>300 µM
Nc1nc2c(ncn2CCC(CO)CO)c(=O)[nH]1,-,-,Human T-lymphoblasts,EC50,-,cytopathic effect,Human herpesvirus 6,71 µM
Nc1nc2c(ncn2CCOCP(=O)(O)O)c(=O)[nH]1,GS,-,HSB-2,EC50,-,antigen / flow cytometry,Human herpesvirus 6,1.5 µM
O=C(O)P(=O)(O)O,-,-,SupT1,EC50,-,syncytia,Human herpesvirus 7,2.3 µg/mL
Nc1ccn(C[C@@H](CO)OCP(=O)(O)O)c(=O)n1,-,-,Human T-lymphoblasts,EC50,-,cytopathic effect,Human herpesvirus 6,2 µM
Nc1ncc2c(ncn2COC(CO)CO)n1,-,-,CD4+ T lymphocytes,EC50,-,syncytia,Human herpesvirus 7,0.0096 µg/mL
Nc1ncnc2c1ncn2C[C@H](O)CO,AD-169 (100 PFU),-,HEL,EC50,-,cytopathic effect,Human cytomegalovirus,>100 µg/mL
NC(=O)c1ncn([C@@H]2O[C@H](CO)[C@@H](O)[C@H]2O)n1,HRV2,-,HeLa,EC50,-,-,Human rhinovirus,87.04 µg/mL
Nc1nc2c(ncn2COCCO)c(=O)[nH]1,-,-,CD4+ T lymphocytes,EC50,-,syncytia,Human herpesvirus 7,>250 µg/mL
C[C@H]1C[C@@H](n2cnc3c(N)ncnc32)[C@H](O)[C@@H]1O,DAVIS (100 PFU),-,HEL,EC50,-,cytopathic effect,Human cytomegalovirus,>100 µg/mL

Repeating the first 2 entries:

SMILES,strain or isolate,dose,cells,measure,conditions,read by,agent,result
Nc1nc2c(ncn2CCC(CO)CO)c(=O)[nH]1,GS,-,HSB-2,EC50,-,cytopathic effect,Human herpesvirus 6,>400 µM
O=C(NCCc1c[nH]c2ccccc12)C1=Cc2ccncc2CC1,1117R73-1-2,-,HFF,EC50,-,plaque count,Human cytomegalovirus,6.4 µM